In patent US20060292076A1, “Antimicrobial mediated ozone generation” (priority 2002, published 2006):

Key:
[1] = Oxidation of indigo carmine 1 and ^18O incorporation into cyclic α-ketoamide 2 by different reactive oxygen species
[2] = Oxygen isotope experiments (^16O/^18O in H2O2 by TCEP reduction and MS); format: biochemical; settings: photo-oxidation in H2^18O

O=O [^1O2*, singlet oxygen]
^18O incorporation into 2 ([1]; H2^18O PB): no

Cc1c[nH]c2ccccc12 [3-methylindole]
^18O incorporation into the H2O2 [2]: negligible; also recorded: does not include oxygen incorporation

[Na+].[O-]Cl [NaOCl]
cleavage of the double bond of 1 to yield isatin sulfonic acid 2 ([1]; NaOCl 2 mM, 1 100 μM, PBS pH 7.4): did not cleave the double bond; also recorded: does not cleave the double bond

“Also recorded” adds a separate entry of the source.
